A mixed list of measured activities; the numbers were collected in NIAID ChemDB.

Common to all: cytotoxicity tests; cells: MT-4; measure: CC50

Rows are shuffled and stem from different studies. An empty or dashed field is not shown. CCn: concentration that lowers growth or viability of the cells by n%.

CCn1cc(C(=O)O)c(=O)c2cc(F)c(N3CCN(c4ccccc4OC)CC3)c(OC(F)F)c21 ; result: 3.2 µM
Cc1cc(C#N)cc(C)c1Oc1nc(Nc2ccc(NS(=O)(=O)c3ccccc3)cc2)nc2ccsc12 ; read by: MTT ; result: 19.65 µM
O=C1/C(=C/c2cc(O)c(O)c(O)c2)CC(C(=O)O)C/C1=C\c1cc(O)c(O)c(O)c1 ; read by: MTT ; result: 70 µM
NCCCNC(=O)CC(N)CCCN ; result: 0.028 µg/mL
C#C[C@]1(CO)O[C@@H](n2ccc3c(N)nc(N)nc32)C[C@@H]1O ; read by: ATP / luminescence ; result: >8.4 µM
Cc1cc(C#N)cc(C)c1Oc1nc(Nc2ccc(NS(=O)(=O)c3ccc([N+](=O)[O-])cc3)cc2)nc2ccsc12 ; read by: MTT ; result: 91.4 µM
CCOCn1c(Cc2ccc(C)cc2)c(CC)c(=O)[nH]c1=O ; read by: MTT ; result: >100 µM
CCOCn1c(Cc2ccccc2)c(C(C)C)c(=O)[nH]c1=O ; result: >100 µM
CC1Sc2c(C(=O)O)c(=O)c3cc(F)c(N4CCN(c5ncccn5)CC4)cc3n21 ; result: 3.6 µg/mL
Cc1[nH]c2ccccc2c1CC(=O)N[C@@H](Cc1ccccc1)C(=O)N(C)c1ccccc1 ; result: >11.56 µM
CCc1c(Cc2ccc(OC)c(OC)c2)n(COCCCc2ccccc2)c(=O)[nH]c1=O ; read by: MTT ; result: 38 µM
Nc1nc2c(ncn2COCCO)c(=O)[nH]1 ; result: >100 µM
CCn1cc(C(=O)O)c(=O)c2cc(F)c(N3CCN(c4ncccn4)C(C)C3)c(OC(F)F)c21 ; result: 10.5 µg/mL
CC(=O)NS(=O)(=O)c1c(C)cc(C)c(-c2c3nc(c(-c4c(C)cc(C)c(S(=O)(=O)NC(C)=O)c4C)c4ccc([nH]4)c(-c4c(C)cc(C)c(S(=O)(=O)NC(C)=O)c4C)c4nc(c(-c5c(C)cc(C)c(S(=O)(=O)NC(C)=O)c5C)c5ccc2[nH]5)C=C4)C=C3)c1C ; result: 75 µg/mL
Cc1c(Sc2ccccc2)n(COCCNc2ccccc2)c(=O)[nH]c1=O ; result: >1 µM
Cn1c(=O)cc(Oc2nc(Nc3ccc(C#N)cc3)nc(Oc3cc(=O)oc4ccccc34)n2)c2ccccc21 ; read by: MTT ; result: 69.2 µg/mL
CC[C@H](CC[C@](C)(O)[C@H]1CC[C@H]2[C@@H]3[C@H](O)C=C4C[C@@H](O)CC[C@]4(C)[C@H]3CC[C@@]21C)C(C)C ; read by: MTT ; result: 25.8 µM
Cc1cn([C@H]2C[C@H](N=[N+]=[N-])[C@@H](CO)O2)c(=O)[nH]c1=O ; read by: MTT ; result: >25 µM
C#C[C@]1(CO)O[C@@H](n2cc(C)c3c(N)ncnc32)C[C@@H]1O ; read by: ATP / luminescence ; result: >8.4 µM
O=C1/C(=C/c2cc(O)c(O)c(O)c2)CC/C1=C\c1cc(O)c(O)c(O)c1 ; read by: MTT ; result: 180 µM
CC(C)CCC[C@@H](C)[C@H]1CC[C@H]2[C@@H]3CC[C@H]4C[C@@H](CCC=C(c5cc(Cl)c(O)c(C(=O)O)c5)c5cc(Cl)c(O)c(C(=O)O)c5)CC[C@]4(C)[C@H]3CC[C@]12C ; result: >125 µM
Cc1ccc(S(=O)(=O)NC(CC(C)C)c2nnc(N(S(=O)(=O)c3ccc(Cl)cc3)S(=O)(=O)c3ccc(Cl)cc3)s2)cc1 ; read by: MTT ; result: 4.09 µM
Cn1cc(C(=O)O)c(=O)c2cc(F)c(N3CC=C(c4ccccc4)CC3)c(C(F)(F)F)c21 ; result: 0.53 µM
O=C(O)c1cn(C2CC2)c2c(OC(F)F)c(N3CCN(c4nc5ccccc5o4)CC3)c(F)cc2c1=O ; result: 0.592 µg/mL
C#C[C@]1(CO)O[C@@H](n2cc(F)c3c(N)ncnc32)C[C@@H]1O ; read by: ATP / luminescence ; result: >8.4 µM
CC1(C)NCCCn2c1nc(C(=O)NCc1ccc(F)cc1)c(O)c2=O ; read by: microscopy ; result: >1 µM
CCOC(=O)c1cn(CC(O)CSc2ccccc2C(=O)NC(C)(C)C)cc1-c1ccccc1 ; result: 94 µM
C#C[C@]1(CO)O[C@@H](n2cc(I)c3c(N)ncnc32)C[C@@H]1O ; read by: ATP / luminescence ; result: >8.4 µM
CCOC(=O)c1ccn(CC(O)CNc2ccccc2)c1 ; result: >200 µM
CC(=O)Nc1ccc(S(=O)(=O)Nc2ccc(Nc3nc(Oc4c(C)cc(C#N)cc4C)c4sccc4n3)cc2)cc1 ; read by: MTT ; result: 12.66 µM
COc1ccc2nc(Nc3nc(Nc4ccc(C#N)cc4)nc(Oc4cc(=O)n(C)c5ccccc45)n3)sc2c1 ; read by: MTT ; result: 72.13 µg/mL
Cc1cc(C#N)cc(C)c1Oc1nc(NC2CCN(S(=O)(=O)c3ccc(-c4ccccc4)cc3)CC2)nc2ccsc12 ; read by: MTT ; result: >209.8 µM
O=c1[nH]c(=O)n([C@H]2C[C@H](O)[C@@H](CO)S2)cc1/C=C/Br ; result: >500 µM
CCc1c(Cc2ccc(C)cc2)n(COCc2ccccc2)c(=O)[nH]c1=O ; read by: MTT ; result: 44 µM
O=C(O)c1cn(-c2ccc(Cn3cncn3)cc2)c2c(OC(F)F)c(N3CC=C(c4ccccc4)CC3)c(F)cc2c1=O ; result: 0.12 µM
C#C[C@]1(CO)O[C@@H](n2ccc3c(N)nc(Cl)nc32)C[C@@H]1O ; read by: ATP / luminescence ; result: >8.4 µM
CC(=O)c1ccc(S(=O)(=O)N2CCC(Nc3nc(Oc4c(C)cc(C#N)cc4C)c4sccc4n3)CC2)cc1 ; read by: MTT ; result: 21.98 µM
Cc1cc(/C=C/C#N)cc(C)c1Oc1ccnc(Nc2ccc(CN3CCN(S(=O)(=O)N(C)C)CC3)cc2)n1 ; read by: MTT ; result: 3.07 µM
CN(C)C(=O)C(=O)N(C)C1CN(C2CC2)CCn2c1nc(C(=O)NCc1ccc(F)c(Cl)c1)c(O)c2=O ; read by: microscopy ; result: >1 µM
CCn1cc(C(=O)O)c(=O)c2ccc(N3CCN(c4ncccn4)CC3)c(OC(F)F)c21 ; result: >25 µg/mL
CCc1c(C)[nH]c(=O)c(N(C)C)c1Cc1cc(C)cc(C)c1 ; result: >1 µM
CSCC[C@H](C(=O)N1CCNCC1c1c[nH]c2ccccc12)N1CCCNCC1 ; read by: MTT ; result: >50 µM
COCc1cn([C@H]2CC[C@@H](COC(=O)c3ccc(C)cc3)O2)c(=O)[nH]c1=O ; result: 200 µM
CC1(C)c2nc(C(=O)NCc3ccc(F)cc3)c(O)c(=O)n2CCN1Cc1nnco1 ; read by: microscopy ; result: >1 µM
CCC(O)C(N)C(=O)O ; result: >750 µM
CCc1c(Cc2ccc(OC)c(OC)c2)n(COCCc2ccccc2)c(=O)[nH]c1=O ; read by: MTT ; result: 73 µM
Cc1cn([C@H]2C[C@H](N=[N+]=[N-])[C@@H](CO)O2)c(=O)[nH]c1=O ; read by: MTT ; result: >7.5 µM
O=C(O)CC1C/C(=C\c2cc(O)c(O)c(O)c2)C(=O)/C(=C/c2cc(O)c(O)c(O)c2)C1 ; read by: MTT ; result: 40 µM
Cn1c(=O)cc(Oc2nc(Nc3ccc(C#N)cc3)nc(Nc3cnccn3)n2)c2ccccc21 ; read by: MTT ; result: 83.58 µg/mL
CCc1c(Sc2ccccc2)n(C/C=C/c2ccccc2)c(=O)[nH]c1=O ; result: >1 µM
CC(C)CCC[C@@H](C)[C@H]1CC[C@H]2[C@@H]3CC=C4C[C@@H](O)CC[C@]4(C)[C@H]3CC[C@]12C ; result: >25 µM
Cc1c(Sc2ccccc2)n(C/C=C/c2ccc([N+](=O)[O-])s2)c(=O)[nH]c1=O ; result: >1 µM
CNn1cc(C(=O)O)c(=O)c2cc(F)c(N3CCN(c4ncccn4)CC3)c(OC(F)F)c21 ; result: >24.9 µg/mL
C#C[C@]1(CO)O[C@@H](n2ccc3c(N)ncnc32)C[C@@H]1O ; read by: ATP / luminescence ; result: >8.4 µM
CC(C)CC(NS(=O)(=O)c1ccc(Cl)cc1)c1nnc(NS(=O)(=O)c2ccc(Br)cc2)s1 ; read by: MTT ; result: 57.63 µM
N#C[C@]1(CO)O[C@@H](n2ccc3c(N)ncnc32)C[C@@H]1O ; read by: ATP / luminescence ; result: >8.4 µM
O=C(O)c1cn(C2CC2)c2c(OC(F)F)c(N3CCN(c4ccc(F)cc4)CC3)c(F)cc2c1=O ; result: 0.68 µg/mL
Cc1cc(C#N)cc(C)c1Oc1nc(Nc2ccc(N)cc2)nc2ccsc12 ; read by: MTT ; result: 19.39 µM
CCCc1cc(=O)oc2c3c(c4c(c12)OC(C)(C)C=C4)O[C@H](C)C[C@@H]3O ; read by: trypan blue ; result: 23 µM
Cc1cc(C#N)cc(C)c1Oc1nc(NC2CCN(S(=O)(=O)c3ccc([N+](=O)[O-])cc3)CC2)nc2ccsc12 ; read by: MTT ; result: 81.73 µM
COc1c(Cl)cc(C(=CCC[C@@H](C)[C@H]2CCC3C4C(C[C@H](O)[C@@]32C)[C@@]2(C)CC[C@@H](O)C[C@H]2C[C@H]4O)c2cc(Cl)c(OC)c(C(=O)O)c2)cc1C(=O)O ; result: >54.1 µM
Cc1c(Sc2ccccc2)n(COCCN(CC#N)CC#N)c(=O)[nH]c1=O ; result: >1 µM
CCc1c(Cc2ccc(C)cc2)n(COCCCc2ccccc2)c(=O)[nH]c1=O ; read by: MTT ; result: 43 µM
C=C1C(n2ccc(N)nc2=O)C=CC1(CO)CO ; result: 95 µM
CC(C)[C@H](C)CC[C@](C)(O)[C@H]1C(=O)C[C@H]2[C@@H]3C(=O)C=C4C[C@@H](O)CC[C@]4(C)[C@H]3CC[C@@]21C ; read by: MTT ; result: 4.95 µM
Cc1cn([C@@H]2C[C@H](O)[C@@H](CO)S2)c(=O)[nH]c1=O ; result: >100 µM
Nc1ccn([C@H]2C=C[C@@H](CO)O2)c(=O)n1 ; result: 15 µM
Cc1c(Sc2ccccc2)n(C/C=C/c2ccccc2)c(=O)[nH]c1=O ; result: >1 µM
Cc1ccnc2c1NC(=O)c1cccnc1N2C1CC1 ; read by: XTT ; result: >1000 µM
Cc1c(Sc2ccccc2)n(COCCN2CCOCC2)c(=O)[nH]c1=O ; result: >1 µM
CN(C)C(=O)C(=O)N(C)C1CN(CCc2ccccc2)CCn2c1nc(C(=O)NCc1ccc(F)cc1)c(O)c2=O ; read by: microscopy ; result: >1 µM
CCc1c(Sc2cc(C)cc(C)c2)n(C/C=C/c2cccs2)c(=O)[nH]c1=O ; result: >1 µM
Cn1cc(C(=O)O)c(=O)c2cc(F)c(N3CCN(c4ncccn4)CC3)c(OC(F)F)c21 ; result: 17.99 µg/mL
CCOC(=O)c1ccccc1SCC(O)Cn1cc(C(=O)OCC)c(-c2ccccc2)c1 ; result: 50 µM
CCNC(=O)c1c(O)c2ncc(Cc3ccc(F)cc3)cc2n(C)c1=O ; result: >50 µM
COc1ccccc1N1CCN(c2c(F)cc3c(=O)c(C(=O)O)cn(C4CC4)c3c2OC(F)F)CC1 ; result: 6 µg/mL

For reference, 5 entries again:

compound,read by,result
CC(=O)NS(=O)(=O)c1c(C)cc(C)c(-c2c3nc(c(-c4c(C)cc(C)c(S(=O)(=O)NC(C)=O)c4C)c4ccc([nH]4)c(-c4c(C)cc(C)c(S(=O)(=O)NC(C)=O)c4C)c4nc(c(-c5c(C)cc(C)c(S(=O)(=O)NC(C)=O)c5C)c5ccc2[nH]5)C=C4)C=C3)c1C,,75 µg/mL
O=C1/C(=C/c2cc(O)c(O)c(O)c2)CC/C1=C\c1cc(O)c(O)c(O)c1,MTT,180 µM
Cc1cc(/C=C/C#N)cc(C)c1Oc1ccnc(Nc2ccc(CN3CCN(S(=O)(=O)N(C)C)CC3)cc2)n1,MTT,3.07 µM
C#C[C@]1(CO)O[C@@H](n2ccc3c(N)ncnc32)C[C@@H]1O,ATP / luminescence,>8.4 µM
CC1(C)NCCCn2c1nc(C(=O)NCc1ccc(F)cc1)c(O)c2=O,microscopy,>1 µM